A mixed list of measured activities; the numbers were collected in NIAID ChemDB.

All rows: cytotoxicity tests; cells: KB; read-out: CC50

Blank or dashed fields: not listed here. CCn: concentration that lowers growth or viability of the cells by n%. Conditions beyond the fields shown may differ between rows.

smiles,method,value
O=c1c2cc(O)ccc2oc2cc(O)cc(O)c12,sulforhodamine / absorbance,>50 µM
C/C(=C\C=C\[C@@H](C)[C@H]1CC[C@@]2(C)C3CC[C@H]4C(C)(C)C(=O)CC[C@]4(C)[C@@]3(O)[C@@H](O)C[C@]12C)C(=O)O,,>40 µM
COc1cc(C(=O)Oc2c(-c3ccc(Cl)c(Cl)c3)oc3ccccc3c2=O)cc(OC)c1OC(C)=O,,64 µM
C[C@H]1c2ccoc2C[C@H]2[C@H]1[C@@H](O)[C@@H](OC(=O)/C=C/c1ccccc1)[C@@]1(O)C(C)(C)CCC[C@]21C,,3.2 µg/mL
OC[C@H]1O[C@@H](n2c(Br)nc(Br)c2Br)[C@H](O)[C@@H]1O,,65 µM
COc1cc(-c2ccccc2)c(OC)c(OC)c1O,sulforhodamine / absorbance,>50 µM
Nc1nc2c(ncn2[C@H]2C=C[C@@H](CO)O2)c(=O)[nH]1,,>500 µM
OC[C@H]1O[C@@H](n2cnc3cc4cc(Cl)c(Cl)cc4cc32)[C@H](O)[C@@H]1O,,>100 µM
c1cc2c(cnc3c4cc5c(cc4ccc23)OCO5)c2c1OCO2,sulforhodamine,>0.32 µg/mL
OCC1OC(n2c(NC3CC3)nc3nc4cc(Cl)c(Cl)cc4nc32)C(O)C1O,,90 µM
OCC(CO)OCn1c(Br)nc(Cl)c1Cl,,>100 µM
C[C@](Cl)([C@@H](Br)/C=C/[C@](C)(Cl)CBr)[C@@H](Br)CCl,,12.4 µg/mL
OC[C@H]1O[C@@H](n2cnc3cc(Cl)c(Cl)cc32)[C@H](O)[C@@H]1O,,36 µM
CN1N=C(N)c2cn([C@@H]3O[C@H](COP(=O)(O)O)[C@@H](O)[C@H]3O)c3ncnc1c23,,10 µM
CC(C)CNC(=O)[C@@H](N)Cc1ccc(OP2(=O)CO[C@@H](Cn3cnc4c(N)ncnc43)CO2)cc1,absorbance,>100 µM
[C-]#[N+][C@@]1(C)CC[C@H]2[C@H]3C(=C(C)CC[C@@H]31)[C@H](C=C(C)C)C[C@@H]2C,,15.2 µg/mL
OCCc1ccc(O[C@@H]2O[C@H](CO)[C@@H](O)[C@H](O)[C@H]2O)c(O)c1,MTT,15.05 µM
CC(=O)Oc1c(-c2ccc(Cl)c(Cl)c2)oc2ccccc2c1=O,,6.4 µM
CC(C)Nc1nc2nc3cc(Cl)c(Cl)cc3nc2n1C1OC(CO)C(O)C1O,,70 µM
O=c1[nH]c(=O)n([C@H]2C[C@H](O)[C@@H](CO)O2)c[c]1[Hg+],trypan blue,4.2 µg/mL
CC(C)(O)c1ccc2c(c1)CC[C@H]1[C@](C)(C(=O)O)CCC[C@]21C,absorbance,29.78 µg/mL
COC(=O)/C(=C1\OC(=O)C(c2ccccc2)=C1O)c1ccccc1,,>20 µg/mL
OC[C@H]1O[C@@H](n2c(Br)nc(Cl)c2Cl)[C@H](O)[C@H]1O,,>100 µM
CC1=C2CC[C@]3(C)O[C@H]3CC/C(C)=C/CC/C(C)=C/[C@H]2OC1,,>20 µg/mL
Nc1nc(NC2CC2)c2ncn([C@H]3C=C[C@@H](CO)O3)c2n1,,>500 µM
CCC[C@@H](OC(C)=O)C1=C(Br)[C@@](CI)(OC)OC1=O,,>20 µg/mL
O=P(O)(O)C(O)(Cc1ccccc1)P(=O)(O)O,,931 µM
O=C(CO)CCC(=O)OCCc1ccc2c(c1)OCO2,MTT,3.85 µM
CC(C)Nc1nc2nc3cc(Cl)c(Cl)cc3cc2n1[C@@H]1O[C@H](CO)[C@@H](O)[C@H]1O,,90 µM
CC(=O)OC(C1C=C(C)C(=O)O1)C(C)C1C2C3(O)OC4(CCC12C)C(=CCC1C(C)(C)OC2CC(=O)OC21C4O)C3=O,MTT,1.87 µg/mL
C[C@H]1[C@H](O)C(=O)CC2[C@]3(C)CC[C@@]4(C)C5CC(C)(C)CC[C@]5(C)CC[C@]4(C)C3CC[C@@]21C,sulforhodamine / absorbance,>50 µM
OC[C@H]1O[C@@H](n2cnc3cc(Cl)c(Cl)cc32)[C@H](O)[C@@H]1O,,36 µM
C/C=C/c1ccc2c(c1)[C@H](C)[C@@H](c1ccc(O)cc1)O2,sulforhodamine / absorbance,43 µM
Nc1ccn([C@@H]2C[C@@H](O)[C@H](CO)O2)c(=O)n1,,>100 µM
C[C@]1(/C=C/Cl)C[C@](Cl)(CBr)[C@@H](Br)C[C@H]1Cl,,13.3 µg/mL
Nc1ncnc2c1ncn2[C@@H]1C[C@@H](O)[C@H](CO)O1,,>100 µM
CN1Cc2c(ccc3c2OCO3)-c2ccc3cc4c(cc3c21)OCO4,sulforhodamine,>3.33 µg/mL
O=C(/C=C/c1ccc(O)c(O)c1)c1ccc(O)cc1,,3.9 µM
OC[C@H]1O[C@@H](n2c(SCc3ccccc3)nc3cc4cc(Cl)c(Cl)cc4cc32)[C@H](O)[C@@H]1O,,>100 µM
OC[C@H]1O[C@@H](n2c(Cl)nc(Cl)c2Cl)[C@H](O)[C@@H]1O,,>100 µM
C[C@@H]1CCC23[C@H]1CC[C@@]2(C)C[C@@](C)(O)[C@H]3C,,10.4 µg/mL
OC[C@H]1O[C@@H](n2c(Br)nc(Br)c2Br)[C@H](O)[C@H]1O,,>100 µM
CCO/N=C/c1ccc(OCCC2CCN(c3ccc(C)nn3)CC2)cc1,,4.706 µM
O=c1[nH]c(=O)n([C@H]2C[C@H](O)[C@@H](CO)O2)c[c]1[Hg+].O[C@H](C[S-])[C@H](O)CS,trypan blue,48.8 µg/mL
CC(C)=CC[C@H]1C[C@@]2(C[C@H]3CCC(C)(C)C=C3C)C(=O)[C@](C(=O)c3ccccc3)(C(=O)C3=C2OC(C)(C)CC3)C1(C)C,sulforhodamine / absorbance,>50 µM
C/C(=C\CC[C@@H](C)C1CC[C@@]2(C)[C@@H]3CC[C@H]4C(C)(C)C(=O)CC[C@]4(C)[C@@]3(O)CC[C@]12C)C(=O)O,,>40 µM
OC[C@H]1O[C@@H](n2c(SCc3ccccc3)nc3cc4cc(Cl)c(Cl)cc4nc32)[C@H](O)[C@@H]1O,,>100 µM
C[C@@H]1O[C@@H](O[C@@H]2[C@@H](O)[C@H](OCCc3ccc(O)c(O)c3)O[C@H](CO)[C@H]2OC(=O)/C=C/c2ccc(O)c(O)c2)[C@H](O)[C@H](O)[C@H]1O,MTT,9.41 µM
COc1cc(C(=O)Oc2c(-c3ccc(Cl)c(Cl)c3)oc3ccccc3c2=O)cc(OC)c1O,,7.1 µM
O=C1c2c(O)cc(O)cc2O[C@H](c2ccc(O)cc2)[C@H]1c1c(O)cc(O)c2c(=O)cc(-c3ccc(O)c(O)c3)oc12,sulforhodamine / absorbance,>50 µM
OC[C@H]1O[C@@H](n2c(Cl)nc3cc(Cl)c(Cl)cc32)[C@H](O)[C@@H]1O,,210 µM
COC1c2c(ccc3c2OCO3)-c2ccc3cc4c(cc3c2N1C)OCO4,sulforhodamine,>3.63 µg/mL
COc1cc(/C=C/C(=O)Oc2c(-c3ccc(Cl)c(Cl)c3)oc3ccccc3c2=O)ccc1OC(C)=O,,>100 µM
COc1cc(/C=C/C(=O)O[C@H]2[C@H](O)[C@@H](OC3OCC(O)(CO)C3O)[C@H](OCCc3ccc(O)cc3)O[C@@H]2CO)ccc1O,MTT,7.69 µM
OC[C@H]1O[C@@H](n2c(Cl)nc3cc(Cl)c(Cl)cc32)[C@H](O)[C@@H]1O,,>100 µM
O=c1[nH]c(=O)n([C@H]2C[C@H](O)[C@@H](CO)O2)c[c]1[Hg+].O=c1cc[nH]c(=S)[nH]1,trypan blue,>115 µg/mL
COC(=O)/C(C)=C/C=C/[C@@H](C)[C@H]1CC[C@@]2(C)C3CC[C@H]4C(C)(C)C(=O)CC[C@]4(C)[C@@]3(O)CC[C@]12C,,>40 µM
C=C1C[C@H]2OC2[C@]2(CC[C@@H]3C([C@@H](OC(C)=O)[C@H](C=C(C)C)OC(C)=O)=CC[C@H](OC(C)=O)[C@@H]13)CO2,,>20 µg/mL

8 of the rows above, restated:

smiles | method | value
C/C=C/c1ccc2c(c1)[C@H](C)[C@@H](c1ccc(O)cc1)O2 | sulforhodamine / absorbance | 43 µM
OC[C@H]1O[C@@H](n2c(SCc3ccccc3)nc3cc4cc(Cl)c(Cl)cc4nc32)[C@H](O)[C@@H]1O |  | >100 µM
COc1cc(C(=O)Oc2c(-c3ccc(Cl)c(Cl)c3)oc3ccccc3c2=O)cc(OC)c1OC(C)=O |  | 64 µM
C[C@H]1c2ccoc2C[C@H]2[C@H]1[C@@H](O)[C@@H](OC(=O)/C=C/c1ccccc1)[C@@]1(O)C(C)(C)CCC[C@]21C |  | 3.2 µg/mL
COc1cc(/C=C/C(=O)O[C@H]2[C@H](O)[C@@H](OC3OCC(O)(CO)C3O)[C@H](OCCc3ccc(O)cc3)O[C@@H]2CO)ccc1O | MTT | 7.69 µM
OC[C@H]1O[C@@H](n2c(Br)nc(Cl)c2Cl)[C@H](O)[C@H]1O |  | >100 µM
CC(C)Nc1nc2nc3cc(Cl)c(Cl)cc3nc2n1C1OC(CO)C(O)C1O |  | 70 µM
O=c1[nH]c(=O)n([C@H]2C[C@H](O)[C@@H](CO)O2)c[c]1[Hg+].O[C@H](C[S-])[C@H](O)CS | trypan blue | 48.8 µg/mL